A mixed list of measured activities; the numbers were collected in NIAID ChemDB.

Common to all: tests in culture; agent: Mycobacterium tuberculosis

ECn: concentration that inhibits the pathogen or its effect by n%. Inhibition is in % at the dose shown (toxicity tests: loss of growth or viability). Rows are shuffled and stem from different studies. MIC bound: limit read from a one-dose screen. Blank or dashed fields: not listed here.

SMILES,measure,strain or isolate,changes,cells,dose,method,value
N#Cc1ccc(NNC(=O)N2CCN(c3nc(N4CCN(c5ccccc5)CC4)c4ccccc4n3)CC2)cc1,MIC,H37Rv,,,,BACTEC / fluorescence,>6.25 µg/mL
COc1ccc(C2SCC(=O)N2NC2=Nc3ccccc3Sc3ccccc32)cc1,MIC,H37Rv,,,,broth dilution,1000 µg/mL
Clc1ccc(/C(Cn2ccnc2)=N/OCc2ccccc2)c(Cl)c1,MIC,CIP103471,,,,,0.5 µg/mL
CO/N=C1/N=C(C)C(=N)N1c1ccccc1,MIC bound,H37Rv,,,,BACTEC,>12.5 µg/mL
Fc1ccc(/C(Cn2ccnc2)=N/OCc2ccccc2)cc1,MIC,CIP103471,,,,,8 µg/mL
COc1ccc2c(-c3ccccc3)cc(N)nc2n1,inhibition,H37Rv,,,12.5 µg/mL,,54%
OC(c1cc(-c2ccc(Cl)cc2)nc2ccccc12)C1CCCCN1,MIC bound,H37Rv,,,,resazurin,<6.25 µg/mL
NNC(=O)c1ccncc1,MIC,M22,MDR,,,resazurin,2 µg/mL
Cc1ccccc1Sc1nnc(N2CCN(c3nc(N4CCN(c5ccccc5)CC4)c4ccccc4n3)CC2)o1,MIC,H37Rv,,,,BACTEC / fluorescence,>6.25 µg/mL
CCOC(=O)N1CCN(c2ccc3c(-c4ccccc4)cc(OC)nc3n2)CC1,EC50,H37Rv,,,,,<12.5 µg/mL
COc1ccc(C2C(C(=O)Nc3ccc(Cl)cc3)=C(C)NC(C)=C2C(=O)Nc2ccc(Cl)cc2)c(O)c1,inhibition,H37Rv,,,2.5 µg/mL,,81%
CCCCC/C=C(/C(=O)O)C(C)C(=O)O,MIC,H37Ra,,,,,>200 µg/mL
c1ccc(CO/N=C(\Cn2ccnc2)c2ccccc2)cc1,MIC,CIP103471,,,,,1 µg/mL
Cc1noc(NS(=O)(=O)c2ccc(N=Nc3c[nH]c(=O)c(O)c3)cc2)c1C,inhibition,H37Rv,,,12.5 µg/mL,BACTEC,-4%
CCC(=O)Oc1cc2oc3cc(OC(=O)CC)c(C(C)=O)c(CCC(C)C)c3c(=O)c2c(O)c1CCC(C)C,MIC,H37Ra,,,,resazurin,1.56 µg/mL
O=[N+]([O-])c1ccccc1Sc1nnc(N2CCN(c3nc(N4CCN(c5ccccc5)CC4)c4ccccc4n3)CC2)o1,MIC,H37Rv,,,,BACTEC / fluorescence,>6.25 µg/mL
Fc1ccc(/C(Cn2ccnc2)=N\OC/C=C/c2ccccc2)cc1,MIC,CIP103471,,,,,8 µg/mL
CCCOc1cc2oc3cc(O)c(CCC(C)C)c(O)c3c(=O)c2c(CCC(C)C)c1OC,MIC,M11,MDR,,,resazurin,6.25 µg/mL
CCOC(=O)N1CCN(c2ccc3c(-c4ccccc4)cc(N4CCN(C(=O)OCC)CC4)nc3n2)CC1,inhibition,H37Rv,,,12.5 µg/mL,,75%
COc1c(CCC(C)C)c(=O)cc2oc3cc(=O)/c(=C(\C)O)c(CCC(C)C)c3c(O)c12,MIC,H37Ra,,,,resazurin,50 µg/mL
O=C(c1ccncc1)N1C(c2ccccc2)=C(c2ccccc2)Sc2nnc(-c3ccc(Cl)cc3)n21,MIC,,,,,,10 µg/mL
CSc1ccc(C2C(C(=O)Nc3ccccc3)=C(C)NC(C)=C2C(=O)Nc2ccccc2)cc1,EC50,H37Rv,,,,,<2.5 µg/mL
O=C1[C@H](Cl)[C@H](c2cccc([N+](=O)[O-])c2)N1NC1=Nc2ccccc2Sc2ccccc21,MIC,H37Rv,,,,broth dilution,1000 µg/mL
NC(=O)c1cnc(C(=O)c2ccccc2)cn1,EC50,H37Rv,,,,resazurin,>6.25 µg/mL
CC(=O)Nc1ccc2c(-c3ccccc3)cc(N3CCN(C(C)=O)CC3)nc2n1,EC50,H37Rv,,,,,>12.5 µg/mL
CC1(C)S[C@@H]2[C@H](NC(=O)[C@H](N)c3ccccc3)C(=O)N2[C@H]1C(=O)O,MIC,1560,,,,,>92 µM
O=c1cc(-c2ccccc2)c2ccc(N3CCNCC3)nc2[nH]1,inhibition,H37Rv,,,12.5 µg/mL,,0%
O=C1[C@H](Cl)[C@H](c2ccccc2[N+](=O)[O-])N1NC1=Nc2ccccc2Sc2ccccc21,MIC,H37Rv,,,,broth dilution,1000 µg/mL
NC(=S)c1cnc(C(=O)c2ccccc2)cn1,inhibition,H37Rv,,,6.25 µg/mL,resazurin,39%
Cc1nc2ccccc2c(=O)n1NC(=O)c1ccc(N)cc1,MIC bound,H37Rv,,,,resazurin,>6.25 µg/mL
COc1cc(-c2ccccc2)c2ccc(N3CCNCC3)nc2n1,EC50,H37Rv,,,,,>12.5 µg/mL
CC1=C(C(=O)Nc2ccccc2Cl)C(c2ccccc2O)C(C(=O)Nc2ccccc2Cl)=C(C)N1,EC50,H37Rv,,,,,>2.5 µg/mL
O=C(O)c1cn(-c2ccc(F)cc2F)c2cc(N3CCN(C(c4ccccc4)c4ccc(Cl)cc4)CC3)c(F)cc2c1=O,MIC,ATCC35801,,,,,10.35 µM
Nc1c(-c2cn(Cc3ccccc3)c3ccccc23)[n+]([O-])c2ccccc2[n+]1[O-],MIC bound,H37Rv,,,,BACTEC,>12.5 µg/mL
Cc1cccc(Nc2nc(NNC(=O)c3ccncc3)nc(Nc3ccccn3)n2)c1,inhibition,H37Rv,,,0.1218 µM,BACTEC / radiometric,74%
CCN(CC)Cc1cc(Nc2c(C)cnc3cc(Cl)ccc23)ccc1O,MIC bound,H37Rv,,,,resazurin,>6.25 µg/mL
COc1ccccc1NC(=O)C1=C(C)NC(C)=C(C(=O)Nc2ccccc2OC)C1c1ccc(SC)cc1,inhibition,H37Rv,,,2.5 µg/mL,,93%
CC1=NN(C(=O)c2ccncc2)C(=O)C1N=Nc1ccc(S(=O)(=O)N=C(N)N)cc1,MIC,H37Rv,,,,BACTEC,≥12.8 µg/mL
COc1c(OCCO)cc2oc3cc(OCCO)c(CCC(C)C)c(O)c3c(=O)c2c1CCC(C)C,MIC,H37Ra,,,,resazurin,3.12 µg/mL
O=C(O)c1cn(-c2ccc(F)cc2F)c2cc(N3CCC(N4CCCCC4)CC3)c(F)cc2c1=O,MIC,ATCC35801,,,,,6.45 µM
COC(=O)N1CCN(c2cc(-c3ccccc3)c3ccc(OC)nc3n2)CC1,EC50,H37Rv,,,,,>12.5 µg/mL
Cc1ccc(SCC(=O)NCc2cccs2)cc1,MIC,H37Rv,,VERO,,BACTEC,>12.5 µg/mL
CCN(CC)C(=O)C1CCCN(c2cc3c(cc2[N+](=O)[O-])c(=O)c(C(=O)O)cn3-c2ccc(F)cc2F)C1,MIC,ATCC35801,,,,,1.56 µM
Cc1c2oc3c(C)ccc(C(=O)NCc4cccnc4)c3nc-2c(C(=O)NCc2cccnc2)c(N)c1=O,inhibition,H37Rv,,,12.5 µg/mL,BACTEC,-29%
N#Cc1cnc(C(=O)c2ccccc2)cn1,inhibition,H37Rv,,,6.25 µg/mL,resazurin,10%
COc1ccc(N2CCN(c3c(N)cnc4ccccc34)CC2)c(OC)c1,inhibition,H37Rv,,,6.25 µg/mL,resazurin,8%
O=C(NNc1nc(Nc2ccccn2)nc(Nc2c(Cl)cccc2Cl)n1)c1ccncc1,inhibition,H37Rv,,,0.0311 µM,BACTEC / radiometric,91%
COc1cc2oc3cc(O)c(CCC(C)C)c(O)c3c(=O)c2c(CCC(C)C)c1OC,MIC,H37Rv,,,,resazurin,0.78 µg/mL
Clc1ccc(/C(Cn2ccnc2)=N\OCc2cccc3ccccc23)cc1,MIC,CIP103471,,,,,8 µg/mL
Cc1ccc(NNC(=O)N2CCN(c3nc(N4CCN(c5ccccc5)CC4)c4ccccc4n3)CC2)cc1,inhibition,H37Rv,,,50 µg/mL,agar / visual reading,92%
N#Cc1cnc(C(=O)c2ccccc2O)cn1,EC50,H37Rv,,,,resazurin,>6.25 µg/mL
O=C1CSC(c2ccc(Cl)cc2)N1NC1=Nc2ccccc2Sc2ccccc21,MIC,H37Rv,,,,broth dilution,100 µg/mL
Nc1ccn([C@@H]2O[C@H](C(O[C@@H]3O[C@H](CO)[C@@H](O)[C@H](N)[C@H]3O)[C@@H](O)[C@@H](O)[C@@H](O)[C@@H](O)CO)[C@@H](N)[C@H](O)[C@H]2O)c(=O)n1,MIC,INH-r,,,,,12.5 µg/mL
O=C(O)c1ccc(Sc2nnc(N3CCN(c4nc(N5CCN(c6ccccc6)CC5)c5ccccc5n4)CC3)o2)cc1,inhibition,H37Rv,,,6.25 µg/mL,BACTEC / fluorescence,0%
COc1ccc2c(c1)CCC1C2=CCS1(=O)=O,MIC bound,H37Rv,,,,resazurin,>6.25 µg/mL
Cc1ccc(OCc2nnc3n2N(C(=O)c2ccncc2)C(=O)CS3)cc1,MIC,,,,,,100 µg/mL
CCN(CC)C(=O)C1CCCN(c2cc3c(cc2[N+](=O)[O-])c(=O)c(C(=O)O)cn3C(C)(C)C)C1,MIC,ATCC35801,,,,,0.43 µM
S=C(S)Nc1ccc(Cl)cc1,MIC,KM-R,,,,,12.5 µg/mL
Clc1ccc(/C(Cn2ccnc2)=N/OC/C=C/c2ccccc2)c(Cl)c1,MIC,CIP103471,,,,,8 µg/mL
O=C(CCl)NC(=O)N(/N=C/c1ccco1)c1ccccc1,MIC,H37Rv,,,,BACTEC,≥12.5 µg/mL
CC1CN(c2cc3c(cc2F)c(=O)c(C(=O)O)cn3C2CC2)CC(C)O1,MIC,ATCC35801,,,,,1.08 µM
Cc1cc(=O)n2c(nc3cc(Cl)ccc32)s1,MIC bound,H37Rv,,,,resazurin,>6.25 µg/mL
COc1ccc(OC)c(C2SCC(=O)N2NC2=Nc3ccccc3Sc3ccccc32)c1,MIC,H37Rv,,,,broth dilution,500 µg/mL
O=C(O)c1ccc(NNC(=O)N2CCN(c3nc(N4CCN(c5ccccc5)CC4)c4ccccc4n3)CC2)cc1,MIC,H37Rv,,,,BACTEC / fluorescence,>6.25 µg/mL
CC12CCC(CC1)C(C)(C)O2,MIC bound,H37Rv,,,,BACTEC,>12.5 µg/mL
O=C(NNc1nc(Nc2ccccn2)nc(Nc2ccccc2[N+](=O)[O-])n1)c1ccncc1,inhibition,H37Rv,,,0.1214 µM,BACTEC / radiometric,67%
CC[C@]1(OC(=O)CN2CCN(CCO)CC2)C(=O)OCc2c1cc1n(c2=O)Cc2cc3ccccc3nc2-1.Cl.Cl,inhibition,H37Rv,,,12.8 µg/mL,BACTEC,12%
COc1ccccc1Nc1nc(NNC(=O)c2ccncc2)nc(Nc2ccccn2)n1,inhibition,H37Rv,,,0.0677 µM,BACTEC / radiometric,81%
Nc1ccc(OCc2nnc3n2N(C(=O)c2ccncc2)C(c2ccccc2)=C(c2ccccc2)S3)cc1,MIC,,,,,,100 µg/mL
Clc1ccc(/C(Cn2ccnc2)=N\OCc2cccc3ccccc23)c(Cl)c1,MIC,CIP103471,,,,,8 µg/mL
C=CCOc1cc2oc3cc(O)c(CCC(C)C)c(O)c3c(=O)c2c(CCC(C)C)c1OC,MIC,M16,MDR,,,resazurin,3.12 µg/mL
O=C(c1ccncc1)N1C(c2ccccc2)=C(c2ccccc2)Sc2nnc(-c3ccccc3)n21,MIC,,,,,,10 µg/mL
COc1cc2c(cc1OC)CN(c1nc3c(cc1[N+](=O)[O-])c(=O)c(C(=O)O)cn3C(C)(C)C)CC2,MIC,ATCC35801,,,,,0.86 µM
O=c1oc2c(-c3c(O)c(=O)oc4ccccc34)cc(O)cc2s1,MIC bound,H37Rv,,,,BACTEC,>12.5 µg/mL
Clc1ccc(/C(Cn2ccnc2)=N\OCc2ccc(-c3ccccc3)cc2)cc1,MIC,CIP103471,,,,,8 µg/mL
COc1ccc(CC2C3=C(CCCC3)CCN2c2cc3c(cc2[N+](=O)[O-])c(=O)c(C(=O)O)cn3C2CC2)cc1,MIC,ATCC35801,,,,,6.22 µM
NC(=O)c1cnc(C(=O)c2ccc(Cl)cc2)cn1,EC50,H37Rv,,,,resazurin,>6.25 µg/mL
O=C1Nc2ccccc2C12C=C(c1ccccc1)Nc1ccc(F)cc1S2,EC50,,,,,,<12.5 µg/mL
CC(C)(C)C(=O)OCC1OC(n2ccc(O)cc2=O)C(O)C1O,MIC bound,H37Rv,,,,BACTEC,>12.5 µg/mL
O=C(NNc1nc(Nc2ccccn2)nc(Nc2ccccc2Cl)n1)c1ccncc1,inhibition,H37Rv,,,0.065 µM,BACTEC / radiometric,80%
O=C1Sc2ccccc2Cn2cccc21,inhibition,H37Rv,,,12.5 µg/mL,BACTEC,37%
O=C(NNc1cccc([N+](=O)[O-])c1)N1CCN(c2nc(N3CCN(c4ccccc4)CC3)c3ccccc3n2)CC1,inhibition,H37Rv,,,50 µg/mL,agar / visual reading,92%

Again, the opening 11 rows:

N#Cc1ccc(NNC(=O)N2CCN(c3nc(N4CCN(c5ccccc5)CC4)c4ccccc4n3)CC2)cc1 ; measure: MIC ; strain or isolate: H37Rv ; method: BACTEC / fluorescence ; value: >6.25 µg/mL
COc1ccc(C2SCC(=O)N2NC2=Nc3ccccc3Sc3ccccc32)cc1 ; measure: MIC ; strain or isolate: H37Rv ; method: broth dilution ; value: 1000 µg/mL
Clc1ccc(/C(Cn2ccnc2)=N/OCc2ccccc2)c(Cl)c1 ; measure: MIC ; strain or isolate: CIP103471 ; value: 0.5 µg/mL
CO/N=C1/N=C(C)C(=N)N1c1ccccc1 ; measure: MIC bound ; strain or isolate: H37Rv ; method: BACTEC ; value: >12.5 µg/mL
Fc1ccc(/C(Cn2ccnc2)=N/OCc2ccccc2)cc1 ; measure: MIC ; strain or isolate: CIP103471 ; value: 8 µg/mL
COc1ccc2c(-c3ccccc3)cc(N)nc2n1 ; measure: inhibition ; strain or isolate: H37Rv ; dose: 12.5 µg/mL ; value: 54%
OC(c1cc(-c2ccc(Cl)cc2)nc2ccccc12)C1CCCCN1 ; measure: MIC bound ; strain or isolate: H37Rv ; method: resazurin ; value: <6.25 µg/mL
NNC(=O)c1ccncc1 ; measure: MIC ; strain or isolate: M22 ; changes: MDR ; method: resazurin ; value: 2 µg/mL
Cc1ccccc1Sc1nnc(N2CCN(c3nc(N4CCN(c5ccccc5)CC4)c4ccccc4n3)CC2)o1 ; measure: MIC ; strain or isolate: H37Rv ; method: BACTEC / fluorescence ; value: >6.25 µg/mL
CCOC(=O)N1CCN(c2ccc3c(-c4ccccc4)cc(OC)nc3n2)CC1 ; measure: EC50 ; strain or isolate: H37Rv ; value: <12.5 µg/mL
COc1ccc(C2C(C(=O)Nc3ccc(Cl)cc3)=C(C)NC(C)=C2C(=O)Nc2ccc(Cl)cc2)c(O)c1 ; measure: inhibition ; strain or isolate: H37Rv ; dose: 2.5 µg/mL ; value: 81%